Experimental data published in PMC11826091.

Columns and labels:
[1] = system: MtvA + MtvT; test: EMSA; settings: pH 8.0, 25 min at room temperature, recombinant protein, probe letters rebuilt from the primers and the genome
[2] = system: MtvA (Pseudomonas aeruginosa PAD8 (plasmid pPAD8)); test: EMSA; settings: pH 8.0, 25 min at room temperature, recombinant protein, residues 1-82, protein details: His (pET28a), probe letters rebuilt from the primers and the genome

Does “ACGCCCTCTTCCTTGTTTACCCTGTATTCGAAAGTTGGAATGTTCCAATGACAAGACGTTATCTGCTTTCGGCCAAGAGATTTGGCTCCTTGCATATTATAAGAACCCCAACACTTCCCGTCGTACCTTGAATGCCCCGCCTAGCGGAGAGGCATGAATACGCTCCGTTTTATTGATTTTCAAAGCCATGAGCACGGAGTCGATTTTATAATAATCAGGATTGTCCGACGTGCGCTGATTCGCAGAGCGAGTCGGCTTCCGCCAATTAATCCAGCCTTCTTTAGAAGCGGAACAAAAGTACCAGTTTTATTATTCGAGGCCTTCCCTGAAAACGAACGAGACTTGCACTTCTTTAATCTCCATACGTACTTTCCGAAACAGCAGGCAATGTATCAATCGTTGCCAGATCTTTCTTCCGGGCGAGCGGCCGTACAATTCGGAAA (double strand) [P-exsA]” bind [1]?
Result: binds

Does “ACGCCCTCTTCCTTGTTTACCCTGTATTCGAAAGTTGGAATGTTCCAATGACAAGACGTTATCTGCTTTCGGCCAAGAGATTTGGCTCCTTGCATATTATAAGAACCCCAACACTTCCCGTCGTACCTTGAATGCCCCGCCTAGCGGAGAGGCATGAATACGCTCCGTTTTATTGATTTTCAAAGCCATGAGCACGGAGTCGATTTTATAATAATCAGGATTGTCCGACGTGCGCTGATTCGCAGAGCGAGTCGGCTTCCGCCAATTAATCCAGCCTTCTTTAGAAGCGGAACAAAAGTACCAGTTTTATTATTCGAGGCCTTCCCTGAAAACGAACGAGACTTGCACTTCTTTAATCTCCATACGTACTTTCCGAAACAGCAGGCAATGTATCAATCGTTGCCAGATCTTTCTTCCGGGCGAGCGGCCGTACAATTCGGAAA (double strand) [P-exsA]” bind [2]?
Result: binds

Which results are given for “TATGGATCCCCTCCGAGAAAGGCGGCCAGGAATAGGCAAAGCAGCAGCGATTTTCTCATCTGACTGTCCTTTAGCTGTGCTTGTTGGTGGGGGGCGATGATGGGGAGGGGAGGGTGAGCTCCGGCTCATGTGTGTCTGCAGCATCCAGGCGGCCTAGCAGTTTGGTAGACAACTGCCGCCATGCCTGGCTGCCCTCGCTGCGGCCAGCGGACGACTTGCTTGCTTCGGATTCGGTTGGAGGGGGTATTGGCTCAACCCGCTCGCTTCGAATGTGTTTGACGACTCTTAGCACGCTGATCACCAGTGTTGACGCTAAAGCGTTTAGTCTTGATACTTGCAAAAGATAACACAACGAAAGTCCGAGCCATAAACCACTCGAGTAA (double strand) [P-dotA]”?
binding result [1]: binds; binding result [2]: binds

For some of these results: Construct, isoform or probe ends are uncertain for at least one entry.
